Test results reported in patent US10836796B2, “Derivatives of amanita toxins and their conjugation to a cell binding molecule” (Hangzhou DAC Biotech Co., Ltd., priority 2016, dated 2020).

System: NCI-N87, a human gastric carcinoma cell line
Assay: In vitro cytotoxicity evaluation (MTT assay)
Type: cell-based
Settings: NCI-N87 cells, 120 hours incubation, read-out: N87 cell (Ag+) IC50

Substance: T-DM1: Trastuzumab-DM1, antibody conjugated with maytansine derivative DM1; comparator conjugate [reference compound]
- IC50: 0.19 nM
